Pooled drug test results. Numbers come from NIAID ChemDB, via PubChem.

Shared fields: whole-cell or culture tests; species: Candida albicans

Conditions beyond the fields shown may differ between rows.

SMILES | strain or isolate | read by | measure | value
O=C(/C=C/c1ccc(F)cc1)c1cccc(N(CCO)CCO)c1 | ATCC 10231 | broth dilution | MIC | 32 µg/mL
CC[C@H]1OC(=O)C=C2[C@@]13O[C@@H]3C1OC(=O)[C@@]3(C)CCC[C@@]2(C)[C@@H]13 | ATCC 90028 | - | MIC | 16 µg/mL
NC(=O)c1ccc(F)cc1SSc1cc(F)ccc1C(N)=O | ATCC 2091 | - | MIC | 7.5 µg/mL
CC(C)=CCCC(C)CCO | ATCC 90028 | broth dilution | MIC99.9 | 8000 µg/mL
CCC(C)n1ncn(-c2ccc(N3CCN(c4ccc(OC[C@H]5CO[C@](Cn6cncn6)(c6ccc(Cl)cc6Cl)O5)cc4)CC3)cc2)c1=O | Isogenic isolate 6 MDR1 (25X) | - | MIC | 0.03 µg/mL
Cc1ccc2c(N3CCCC3)cc(N3CCCC3)c(O)c2n1 | - | - | MIC | 1.58 µg/mL
O=C(O)C(Cc1c[nH]c2ccccc12)[NH][Sn]([c]1ccccc1)([c]1ccccc1)[c]1ccccc1 | - | - | MIC | <12.5 µg/mL
COC(=O)/C=C1/NN=C(c2ccccn2)N(c2ccccn2)C1=O | Clinical isolate | agar diffusion | MIC50 | 8 µg/mL
COC(=O)[C@]12CCC(C)(C)C=C1C1CCC3[C@@]4(C)CCC(=O)C(C)(C)C4CC[C@@]3(C)[C@]1(C)CC2 | ATCC 10231 | broth dilution | MIC | 200 µg/mL
CC12C(=O)c3cccc(O)c3C(=O)C1CC1=C2C(=O)c2c(O)cccc2C1=O | - | - | MFC | 3 µg/mL
C=C(C)CN1CC(OCC23C[C@@H]4[C@H](C)CC[C@H]4C4(C=O)CC2C=C(C(C)C)[C@@]34C(O)O)O[C@H](C)[C@@H](O)C1 | 2035B | - | MIC | 0.03 µg/mL
CC1(C)C=C2C3CCC4[C@@]5(C)CCC(=O)C(C)(C)C5CC[C@@]4(C)[C@]3(C)CC[C@@]2(C(=O)O)CC1 | ATCC 10231 | broth dilution | MIC | >200 µg/mL
O=C/C=C/c1ccccc1 | ATCC 90028 | broth dilution | MIC50 | 62.5 µg/mL
[Cl][Sn]([c]1ccccc1)([c]1ccccc1)[c]1ccccc1 | - | - | MIC | 12.5 µg/mL
Cc1c(N)nc([C@H](CC(N)=O)NC[C@H](N)C(N)=O)nc1C(=O)N[C@H](C(=O)N[C@H](C)[C@@H](O)[C@H](C)C(=O)N[C@H](C(=O)NCCc1nc(-c2nc(C(=O)NCCC[S+](C)C)cs2)cs1)[C@@H](C)O)C(O[C@@H]1O[C@@H](CO)[C@@H](O)[C@H](O)[C@@H]1O[C@H]1O[C@H](CO)[C@@H](O)[C@H](OC(N)=O)[C@@H]1O)c1cnc[nH]1 | Isolate 94-104 | - | MLC | 12.5 µg/mL
c1ccc2[nH]ccc2c1 | ATCC 90028 | broth dilution | MIC50 | 500 µg/mL
O=c1c(O)c(-c2ccc(O)c(O)c2)oc2cc(O)cc(O)c12 | ATCC 10231 | broth dilution | MLC | 200 µg/mL
CC1=CC(=O)c2c(O)cccc2C1=O | - | - | MFC | >1000 µg/mL
NC(=O)c1cc(F)ccc1SSc1ccc(F)cc1C(N)=O | ATCC 2091 | - | MIC | 30 µg/mL
C/C=C\C(C)=C\[C@H](C)C(=O)C[C@H](O)CC1CC(=O)NC(=O)C1 | - | - | MIC | >100 µg/mL
C[C@@]12CCC[C@]3(C)C4=CC(=O)OC[C@]45O[C@@H]5C(OC1=O)[C@@H]23 | ATCC 90028 | - | MIC | 32 µg/mL
COc1cc(O)c2c(c1)C(=O)c1c(cc3c(c1O)-c1c(cc(C)c(C(=O)N[C@H](C)C(=O)O)c1O)[C@H](O[C@@H]1O[C@H](C)[C@H](N)[C@H](O[C@@H]4OC[C@@H](O)[C@H](O)[C@@H]4O)[C@H]1O)[C@H]3O)C2=O | IAM4888 | - | MIC | 3.1 µg/mL
CCCCCCCCCCCCCCCCCCCO | ATCC 10231 | broth dilution | MIC | 200 µg/mL
[CH3][Sn]([CH3])([CH3])[NH]C(Cc1c[nH]c2ccccc12)C(=O)O | - | - | MIC | 1 µg/mL
CC(C)[C@@H]1CC[C@@H](C)C[C@H]1O | ATCC 90028 | broth dilution | MIC50 | >8000 µg/mL
O=c1[nH]sc2c(F)cccc12 | ATCC 2091 | - | MIC | 20 µg/mL
C=C(C)C1CC=C(C)CC1 | ATCC 90028 | broth dilution | MIC50 | >8000 µg/mL
Cc1ccc2c(Br)cc(Br)c(O)c2n1 | - | - | MIC | 10 µg/mL
CN[C@@H]1[C@H](O)[C@@H](O)[C@H](O[C@H]2c3cc(C)c(C(=O)N[C@H](C)C(=O)O)c(O)c3-c3c(cc4c(c3O)C(=O)c3cc(OC)cc(O)c3C4=O)[C@@H]2O)O[C@@H]1C | A9540 | - | MIC | 3.1 µg/mL
O=C(/C=C/c1ccc(Br)cc1)c1cccc(N(CCO)CCO)c1 | ATCC 10231 | broth dilution | MIC | 128 µg/mL
CCCCn1sc2cccc(F)c2c1=O | ATCC 2091 | - | MIC | 10 µg/mL
CC(=O)OC/C=C(\C)CCC=C(C)C | ATCC 90028 | broth dilution | MIC50 | 4000 µg/mL
Cc1ccc2c(N3CCNCC3)cc(N3CCNCC3)c(O)c2n1 | - | - | MIC | 2.51 µg/mL

5 of the rows above, restated:

SMILES	strain or isolate	read by	measure	value
CC1(C)C=C2C3CCC4[C@@]5(C)CCC(=O)C(C)(C)C5CC[C@@]4(C)[C@]3(C)CC[C@@]2(C(=O)O)CC1	ATCC 10231	broth dilution	MIC	>200 µg/mL
C[C@@]12CCC[C@]3(C)C4=CC(=O)OC[C@]45O[C@@H]5C(OC1=O)[C@@H]23	ATCC 90028	-	MIC	32 µg/mL
CC[C@H]1OC(=O)C=C2[C@@]13O[C@@H]3C1OC(=O)[C@@]3(C)CCC[C@@]2(C)[C@@H]13	ATCC 90028	-	MIC	16 µg/mL
CC(C)=CCCC(C)CCO	ATCC 90028	broth dilution	MIC99.9	8000 µg/mL
C=C(C)C1CC=C(C)CC1	ATCC 90028	broth dilution	MIC50	>8000 µg/mL

Blank or dashed fields: not listed here. MIC50, MIC90 and the like: level of inhibition, or share of isolates inhibited.